PubChem BioAssay AID624099 | ICCB-Longwood | 2012

- Test: 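Human genes that papillomavirus E2 requires to repress the HPV18 LCR promoter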 (primary screen)
- Cells: human C33A cervical carcinoma cells (HPV-negative) stably expressing BPV1 E2 and an HPV18 LCR luciferase reporter
- Knock-down reagent: siRNA pool against human genes, 40 nM
- Time to read-out: 72 h
- Measurement: 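HPV18 LCR reporter light per well, converted to plate-wise z-scores that exclude control wells, and averaged over triplicate plates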
- Reading the numbers: mean z-score and z-score: higher = stronger reporter signal, weaker E2 silencing
- Hit rule: 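Mean z ≥ 2 together with z ≥ 2 in two or more of the three replicates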
Here is an unselected part of about 21,000 reagents tested. In the full data, 497 (2.4%) were called active. 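Higher z means weaker E2 silencing; only reporter increases were scored, and knock-downs that hurt cell survival may mask genuine repressor factors.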

OSBP (oxysterol binding protein) → mean z-score: 1.86; z-score, replicate A: 1.76; z-score, replicate B: 1.91; z-score, replicate C: 1.9; outcome: inactive
THG1L (tRNA-histidine guanylyltransferase 1 like) → mean z-score: 1.55; z-score, replicate A: 1.88; z-score, replicate B: 1.5; z-score, replicate C: 1.26; outcome: inactive
WNT8B (Wnt family member 8B) → mean z-score: 0.02; z-score, replicate A: -0.2; z-score, replicate B: 0.41; z-score, replicate C: -0.13; outcome: inactive
TMEM72 (transmembrane protein 72) → mean z-score: 1.21; z-score, replicate A: 1.66; z-score, replicate B: 1.16; z-score, replicate C: 0.81; outcome: inactive
FAM201A (family with sequence similarity 201 member A) → mean z-score: -0.87; z-score, replicate A: -0.43; z-score, replicate B: -1.07; z-score, replicate C: -1.11; outcome: inactive
PBRM1 (polybromo 1) → mean z-score: 0.27; z-score, replicate A: 0.63; z-score, replicate B: 0.58; z-score, replicate C: -0.39; outcome: inactive
ARHGAP1 (Rho GTPase activating protein 1) → mean z-score: -0.95; z-score, replicate A: -0.86; z-score, replicate B: -1.06; z-score, replicate C: -0.93; outcome: inactive
SLC27A1 → mean z-score: -0.54; z-score, replicate A: -0.29; z-score, replicate B: -0.97; z-score, replicate C: -0.37; outcome: inactive
CD40LG (CD40 ligand) → mean z-score: 0.17; z-score, replicate A: 0.26; z-score, replicate B: 0.07; z-score, replicate C: 0.2; outcome: inactive
LOC340477 (retired record) → mean z-score: -0.45; z-score, replicate A: -0.6; z-score, replicate B: -0.27; z-score, replicate C: -0.5; outcome: inactive
IHH (Indian hedgehog signaling molecule) → mean z-score: 0.12; z-score, replicate A: 0.1; z-score, replicate B: 0.14; z-score, replicate C: 0.14; outcome: inactive
TPI1P1 (triosephosphate isomerase 1 pseudogene 1) → mean z-score: 0.73; z-score, replicate A: 0.89; z-score, replicate B: 0.53; z-score, replicate C: 0.76; outcome: inactive
